Anti-infective test results gathered from many reports (values: NIAID ChemDB through PubChem).

Shared fields: whole-cell or culture tests; species: HIV-1; method: MTT; read-out: EC50

ECn: concentration that inhibits the pathogen or its effect by n%. An empty or dashed field is not shown. Rows are shuffled and stem from different studies.

structure | changes | cell line | strain | result
C#Cc1ccc(Nc2nccc(Oc3c(C)cc(-c4cn(Cc5cccc(C(=O)OC)c5)nn4)cc3C)n2)cc1 |  | MT-4 | IIIB | 0.072 µM
Cc1cn([C@H]2C[C@H](N=[N+]=[N-])[C@@H](CO)O2)c(=O)[nH]c1=O |  | MT-4 | ROD | >7.48 µM
O=Nc1c(O)n(CCOCCn2c(O)c(N=O)c3ccccc32)c2ccccc12 |  | MT-4 | IIIB | >238 µM
O=C(c1ccccc1)c1c(O)cc(O)c([C@@H]2O[C@H](CO)[C@@H](O)[C@H](O)[C@H]2O)c1O |  | C8166 | IIIB | 131.7 µg/mL
Nc1nc2c(ncn2CCOCP(=O)(O)O)c(=O)[nH]1 |  | MT-4 | IIIB | 0.19 µM
Cc1cc(C)c(Nc2nc(NC3CCN(Cc4ccccc4)CC3)nc3nc[nH]c23)c(C)c1 |  | MT-4 | IIIB | 8.15 µM
C=C1[C@H](CO)[C@@H](O)C[C@@H]1n1cnc2c(=O)[nH]c(N)nc21 | L100I | MT-4 | IIIB | 0.006 µM
O=C1C(=O)N(CCOCCN2C(=O)C(=O)c3cc(Cl)ccc32)c2ccc(Cl)cc21 |  | MT-4 | IIIB | >184 µM
O=c1cc2ccccc2c(O)n1O |  | MT-4 | IIIB | >69.13 µM
COc1ccc(CCNc2nc(NC(=S)Nc3ccc(C)cc3)nc(Oc3cc(=O)oc4ccccc34)n2)cc1OC | RT-resistant RES056 (K103N + Y181C) |  | RES056 | >53.66 µg/mL
O=C(NC(=S)Nc1ccc(Br)cn1)c1ccccc1[N+](=O)[O-] |  | MT-2 | LAI | 0.55 µM
COc1ccc(CCNc2nc(NC(=S)Nc3ccc(Br)cc3)nc(Oc3cc(=O)oc4ccccc34)n2)cc1OC |  | MT-4 | IIIB | >62.7 µg/mL
CC(C)Nc1cccnc1N1CCN(C(=O)c2cc3cc(NS(C)(=O)=O)ccc3[nH]2)CC1 |  | MT-4 | IIIB | 0.32 µM
C=C(C#N)c1cc(C)c(Oc2ccnc(Nc3ccc(CN4CCN(S(C)(=O)=O)CC4)cc3)n2)c(C)c1 | L100I | MT-4 | IIIB | 0.01 µM
Cc1cn([C@H]2C[C@H](N=[N+]=[N-])[C@@H](CO)O2)c(=O)[nH]c1=O |  | C8166 |  | 0.00203 µg/mL
Nc1ccn([C@H]2C[C@]3(CO2)CC(F)(F)P(=O)(O)O3)c(=O)n1 |  | MT-4 |  | 15.5 µM
CO/N=C1\C(=O)N(CCOCCN2C(=O)/C(=N/OC)c3cc(Cl)ccc32)c2ccc(Cl)cc21 |  | MT-4 | IIIB | >193 µM
COc1cc2c(c(OC)c1OC)-c1c(cc3c(c1OC)OCO3)C[C@H](C)[C@H](C)C2 |  | Jurkat cells |  | 15 µM
CCOP(=O)(OCC)C(F)(F)C[C@@]1(O)CO[C@@H](n2ccc(N)nc2=O)C1 |  | MT-4 |  | 11.2 µM
Cc1cc(C)c(Nc2nc(NC3CCN(Cc4ccncc4)CC3)nc3nc[nH]c23)c(C)c1 |  | MT-4 | RES056 | >141 µM
C#Cc1ccc(Nc2nccc(Oc3c(C)cc(-c4cn(CCC(=O)OC)nn4)cc3C)n2)cc1 | Y181C | MT-4 | IIIB | 3.37 µM
Cc1cn([C@H]2C[C@H](N=[N+]=[N-])[C@@H](CO)O2)c(=O)[nH]c1=O |  | MT-4 | NL4-3 | 0.02 µM
Cc1cn([C@H]2C[C@H](N=[N+]=[N-])[C@@H](CO)O2)c(=O)[nH]c1=O | F227L V106A | MT-4 |  | 0.036 µM
Cc1cc(C#N)cc(C)c1Oc1nc(Nc2ccc(C#N)cc2)nc(N)c1Br |  | MT-4 | RES056 | 0.045 µM
Cc1cc(C#N)cc(C)c1Oc1nc(Nc2ccc(C#N)cc2)nc(N)c1Br |  | MT-4 | IIIB | 0.0041 µM
COc1ccc(CCNc2nc(NC(=S)Nc3ccc(F)cc3)nc(Oc3cc(=O)oc4ccccc34)n2)cc1OC |  | MT-4 | IIIB | >14.55 µg/mL
O=C(O[C@@H]1Cc2c(O)cc(O)cc2O[C@@H]1c1ccc(O)c(O)c1)c1ccccc1 |  | C8166 | IIIB | 17.01 µg/mL
Cc1cc(C)c(Nc2nc(NC3CCN(Cc4cccc(C#N)c4)CC3)nc3nc[nH]c23)c(C)c1 |  | MT-4 | IIIB | >25.4 µM
C[C@H](Cn1cnc2c(=O)[nH]c(N)nc21)OCP(=O)(O)O |  | MT-4 | IIIB | 4.5 µM
COc1ccc(CCNc2nc(NC(=S)Nc3ccccc3Cl)nc(Oc3cc(=O)oc4ccccc34)n2)cc1OC |  | MT-4 | IIIB | >13.75 µg/mL
COc1cc(OC)cc(Sc2c(C3CC3)c(=O)[nH]c(=O)n2COCc2ccccc2)c1 | K103N | MT-4 |  | 29.74 µM
Nc1ncnc2c1ncn2[C@H]1C[C@]2(CO1)CC(F)(F)P(=O)(O)O2 |  | MT-4 |  | 83.5 µM
C/C=C(/C)C(=O)O[C@H]1c2cc3c(c4c2C2(CO4)C(=O)C(OC)=C(OC)[C@H]4O[C@@H]([C@@H](C)[C@H]1C)C42O)OCO3 |  | C8166 |  | 64.4 µg/mL
CCOP(=O)(OCC)C(F)(F)C[C@@]1(O)CO[C@@H](n2cnc3c(N)nc(F)nc32)C1 |  | MT-4 |  | 87 µM
Cc1cn([C@H]2C[C@H](N=[N+]=[N-])[C@@H](CO)O2)c(=O)[nH]c1=O |  | MT-4 | IIIB | <0.008 µM
Cc1cc(C)c(Oc2cc(Nc3ccc(C#N)cc3)ncc2C(=O)NCc2cn(Cc3cccc([N+](=O)[O-])c3)nn2)c(C)c1 | WT | MT-4 | IIIB | 0.077 µM
Cc1cc(C)c(Nc2nc(NC3CCN(Cc4ccc(C(N)=O)cc4)CC3)nc3nc[nH]c23)c(C)c1 |  | MT-4 | IIIB | 5.19 µM
Oc1cc(O)c2c(c1)O[C@H](c1ccc(O)c(O)c1)[C@H](O)C2 |  | C8166 |  | 45 µg/mL
COc1ccc(CCNc2nc(NC(=S)Nc3ccc(Cl)cc3)nc(Oc3cc(=O)oc4ccccc34)n2)cc1OC |  | MT-4 | IIIB | >40.83 µg/mL
Cc1cc(/C=C/C#N)cc(C)c1Oc1ccnc(S(=O)(=O)CC(=O)Nc2ccc(F)cc2)n1 | Y188L | MT-4 |  | 2.281 µM
Cc1cn([C@H]2C[C@]3(CO2)CC(F)(F)P(=O)(O)O3)c(=O)[nH]c1=O |  | MT-4 |  | >100 µM
COc1cc(/C=C/C(=O)O[C@@H]2Cc3c(O)cc(O)cc3O[C@@H]2c2ccc(O)c(O)c2)ccc1O |  | C8166 | IIIB | 15.85 µg/mL
Cc1cc(-c2ccc(C#N)cc2)cc(C)c1Oc1ccnc(S(=O)(=O)CC(=O)Nc2ccc(C#N)cc2)n1 | K103N | MT-4 | IIIB | 0.006 µM
C=S(=C)(N)c1ccc(CN2CCC(Nc3nc(Nc4c(C)cc(C)cc4C)c4[nH]cnc4n3)CC2)cc1 |  | MT-4 | IIIB | 4.24 µM
Cc1ccnc2c1NC(=O)c1cccnc1N2C1CC1 | F227L V106A | MT-4 | IIIB | >15.9 µM
CCOP(=O)(OCC)C(F)(F)C[C@@]1(O)CO[C@@H](n2ccc(=O)[nH]c2=O)C1 |  | MT-4 |  | >100 µM
NC(=O)N=Nc1c(O)n(CCOCCn2c(O)c(N=NC(N)=O)c3ccccc32)c2ccccc12 |  | MT-4 | IIIB | >121 µM
C#Cc1ccc(Nc2nccc(Oc3c(C)cc(-c4cn(-c5ccc(C(=O)O)cc5)nn4)cc3C)n2)cc1 | E138K | MT-4 | IIIB | 0.43 µM
Cc1cn([C@H]2C[C@H](N=[N+]=[N-])[C@@H](CO)O2)c(=O)[nH]c1=O |  | MT-4 | NL4-3 | 0.0007 µM

Repeating the final 6 entries:

{"structure": "C=S(=C)(N)c1ccc(CN2CCC(Nc3nc(Nc4c(C)cc(C)cc4C)c4[nH]cnc4n3)CC2)cc1", "cell line": "MT-4", "strain": "IIIB", "result": "4.24 µM"}
{"structure": "Cc1ccnc2c1NC(=O)c1cccnc1N2C1CC1", "changes": "F227L V106A", "cell line": "MT-4", "strain": "IIIB", "result": ">15.9 µM"}
{"structure": "CCOP(=O)(OCC)C(F)(F)C[C@@]1(O)CO[C@@H](n2ccc(=O)[nH]c2=O)C1", "cell line": "MT-4", "result": ">100 µM"}
{"structure": "NC(=O)N=Nc1c(O)n(CCOCCn2c(O)c(N=NC(N)=O)c3ccccc32)c2ccccc12", "cell line": "MT-4", "strain": "IIIB", "result": ">121 µM"}
{"structure": "C#Cc1ccc(Nc2nccc(Oc3c(C)cc(-c4cn(-c5ccc(C(=O)O)cc5)nn4)cc3C)n2)cc1", "changes": "E138K", "cell line": "MT-4", "strain": "IIIB", "result": "0.43 µM"}
{"structure": "Cc1cn([C@H]2C[C@H](N=[N+]=[N-])[C@@H](CO)O2)c(=O)[nH]c1=O", "cell line": "MT-4", "strain": "NL4-3", "result": "0.0007 µM"}